The test system of the series is coronal proteins on NPs. Set-up: species or system mouse. The following applies: for V5 Sera_Nanoparticles Quantitative Value (Normalized Total Spectra): HBPE-NPs incubated 1 h with IAV day 5 (V5) mouse sera, 20:1 NP:sera, centrifuged and washed; for V5 Sera Alone (Control) Quantitative Value (Normalized Total Spectra): IAV day 5 (V5) mouse sera alone, no NPs (sera-only control).

B1: Alpha-actinin-1 (protein, UniProt Q7TPR4 1-892, looked up)
Alpha-actinin-1: MDHYDSQQTNDYMQPEEDWDRDLLLDPAWEKQQRKTFTAWCNSHLRKAGTQIENIEEDFRDGLKLMLLLEVISGERLAKPERGKMRVHKISNVNKALDFIASKGVKLVSIGAEEIVDGNVKMTLGMIWTIILRFAIQDISVEETSAKEGLLLWCQRKTAPYKNVNIQNFHISWKDGLGFCALIHRHRPELIDYGKLRKDDPLTNLNTAFDVAERFLDIPKMLDAEDIVGTARPDEKAIMTYVSSFYHAFSGAQKAETAANRICKVLAVNQENEQLMEDYEKLASDLLEWIRRTIPWLENRVPENTMHAMQQKLEDFRDYRRLHKPPKVQEKCQLEINFNTLQTKLRLSNRPAFMPSEGRMVSDINNAWGCLEQAEKGYEEWLLNEIRRLERLDHLAEKFRQKASIHEAWTDGKEAMLRQKDYETATLSEIKALLKKHEAFESDLAAHQDRVEQIAAIAQELNELDYYDSPSVNARCQKICDQWDNLGALTQKRREALERTEKLLETIDQLYLEYAKRAAPFNNWMEGAMEDLQDTFIVHTIEEIQGLTTAHEQFKATLPDADKERLAILGIHNEVSKIVQTYHVNMAGTNPYTTITPQEINGKWDHVRQLVPRRDQALTEEHARQQHNERLRKQFGAQANVIGPWIQTKMEEIGRISIEMHGTLEDQLSHLRQYEKSIVNYKPKIDQLECDHQLIQEALIFDNKHTNYNMEHIRVGWEQLLTTIARTINEVENQILTRDAKGISQEQMNEFRASFNHFDRDHSGTLGPEEFKACLISLGYDIGNDPQGEAEFARIMSIVDPNRLGVVTFQAFIDFMSRETADTDTADQVMASFKILAGDKNYITEDELRRELPPDQAEYCIARMAPYAGPDSVPGALDYMSFSTALYGESDL
Consider B1, for which the “V5 Sera_Nanoparticles Quantitative Value (Normalized Total Spectra)” value worked out at 1.0879 and the “V5 Sera Alone (Control) Quantitative Value (Normalized Total Spectra)” value (shortened to “V5 Sera Alone … (Normalized Total Spectra)”) worked out at 0.9252.

B2: Leukemia inhibitory factor receptor (protein, UniProt P42703 44-1092, looked up)
Leukemia inhibitory factor …: LKRGVQDLKCTTNNMRVWDCTWPAPLGVSPGTVKDICIKDRFHSCHPLETTNVKIPALSPGDHEVTINYLNGFQSKFTLNEKDVSLIPETPEILDLSADFFTSSLLLKWNDRGSALPHPSNATWEIKVLQNPRTEPVALVLLNTMLSGKDTVQHWNWTSDLPLQCATHSVSIRWHIDSPHFSGYKEWSDWSPLKNISWIRNTETNVFPQDKVVLAGSNMTICCMSPTKVLSGQIGNTLRPLIHLYGQTVAIHILNIPVSENSGTNIIFITDDDVYGTVVFAGYPPDVPQKLSCETHDLKEIICSWNPGRITGLVGPRNTEYTLFESISGKSAVFHRIEGLTNETYRLGVQMHPGQEIHNFTLTGRNPLGQAQSAVVINVTERVAPHDPTSLKVKDINSTVVTFSWYLPGNFTKINLLCQIEICKANSKKEVRNATIRGAEDSTYHVAVDKLNPYTAYTFRVRCSSKTFWKWSRWSDEKRHLTTEATPSKGPDTWREWSSDGKNLIVYWKPLPINEANGKILSYNVSCSLNEETQSVLEIFDPQHRAEIQLSKNDYIISVVARNSAGSSPPSKIASMEIPNDDITVEQAVGLGNRIFLTWRHDPNMTCDYVIKWCNSSRSEPCLLDWRKVPSNSTETVIESDQFQPGVRYNFYLYGCTNQGYQLLRSIIGYVEELAPIVAPNFTVEDTSADSILVKWDDIPVEELRGFLRGYLFYFQKGERDTPKTRSLEPHHSDIKLKNITDISQKTLRIADLQGKTSYHLVLRAYTHGGLGPEKSMFVVTKENSVGLIIAILIPVAVAVIVGVVTSILCYRKREWIKETFYPDIPNPENCKALQFQKSVCEGSNALKTLEMNPCTPNNVEVLESRSIVPKIEDTEIISPVAERPGERSEVDPENHVVVSYCPPIIEEEITNPAADEVGGASQVVYIDVQSMYQPQAKAEEEQDVDPVVVAGYKPQMRLPISPAVEDTAAEDEEGKTAGYRPQANVNTWNLVSPDSPRSTDSNNEVVSFGSPCSINSRQFLIPPKDEDSPKSNGGGWSFTNFFQNKPND
Regarding B2, the “V5 Sera_Nanoparticles Quantitative Value (Normalized Total Spectra)” value is recorded as 1.0879 and the “V5 Sera Alone … (Normalized Total Spectra)” value is 0.9252.

B3: Insulin-like growth factor-binding protein complex acid labile subunit (protein, UniProt P70389 24-603, looked up)
Insulin-like growth …: YLQGTDPGASADAEGPQCPVTCTCSYDDYTDELSVFCSSRNLTQLPDGIPVSTRALWLDGNNLSSIPSAAFQNLSSLDFLNLQGSWLRSLEPQALLGLQNLYHLHLERNLLRSLAAGLFRHTPSLASLSLGNNLLGRLEEGLFRGLSHLWDLNLGWNSLVVLPDTVFQGLGNLHELVLAGNKLTYLQPALLCGLGELRELDLSRNALRSVKANVFIHLPRLQKLYLDRNLITAVAPRAFLGMKALRWLDLSHNRVAGLLEDTFPGLLGLHVLRLAHNAITSLRPRTFKDLHFLEELQLGHNRIRQLGEKTFEGLGQLEVLTLNDNQIHEVKVGAFFGLFNVAVMNLSGNCLRSLPEHVFQGLGRLHSLHLEHSCLGRIRLHTFAGLSGLRRLFLRDNSISSIEEQSLAGLSELLELDLTANQLTHLPRQLFQGLGQLEYLLLSNNQLTMLSEDVLGPLQRAFWLDLSHNRLETPAEGLFSSLGRLRYLNLRNNSLQTFVPQPGLERLWLDANPWDCSCPLKALRDFALQNPGVVPRFVQTVCEGDDCQPVYTYNNITCAGPANVSGLDLRDISETLFVHC
In the case of B3, the “V5 Sera_Nanoparticles Quantitative Value (Normalized Total Spectra)” value is 1.0879 and the “V5 Sera Alone … (Normalized Total Spectra)” value is recorded as 1.8505.

B4: Serglycin (protein, UniProt P13609 75-152, looked up)
Serglycin: EGPSKDFISNYDDYGSGSGSGSGSGSGSGSGSGSGFLGDMEWEYQPTDESNIVYFNYKPFDRILTEQNQDQPEDDFII
For B4, the “V5 Sera_Nanoparticles Quantitative Value (Normalized Total Spectra)” value was 1.0879 and the “V5 Sera Alone … (Normalized Total Spectra)” value was 1.8505.

B5: Amyloid-beta A4 precursor protein-binding family B member 2 (protein, UniProt Q9DBR4 1-760, looked up)
Amyloid beta precursor …: MSEVLPADSGVGTLAVFMASSGSTDIANRNSPATPPNTLNLRSSHNELLNAEIKHSDAKNSTPPKCRKKYALTNIQAAMGLSDPAVQPLLGNGSANIKLVKNGENQLRKAAEQGQQDPNKNLSPAAVINLTSEKLEVKDPHPQESSGCEILPSQPRRTKSFLNYYADLETSARELGQNLGPCQGVGEEKAQPGPGQAPVVIGNGDLLPQKPNKPQSSPEDGQVATVSSSPETKKDHPKTGAKTDCALHRIQNLAPSDEESSWTTLSQDSASPSSPDETDIWSDHSFQTDPDLPPGWKRVNDIAGTYYWHIPTGTTQWERPVSIPADLHGSRKGSLSSVTPSPTPENEKQPWSDFAVLNGGKINSDIWKDLHAATVNPDPSLKEFEGATLRYASLKLRNAPHGDDDDSCSINSDPEAKCFAVRSLGWVEMAEEDLAPGKSSVAVNNCIRQLSYCKNDIRDTVGIWGEGKDMYLSLENDMLSLVDPMDRSVLHSQPIVNIRVWGVGRDNGRERDFAYVARDKDTRILKCHVFRCDTPAKAIATSLHEICSKIMAERKNAKALACSSLQERTNMSLDVPLQVDFPTPKTELVQKFRVQYLGMLPVDRPVGMDTLNSAIENLMTSSSKEDWPSVNMNVADATVTVISEKNEEEVLVECRVRFLSFMGVGKDVHTFAFIMDTGNQRFECHVFWCEPNAANVSEAVQAACMLRYQKCLVARPPSQKVRPPPPPADSVTRRVTTNVKRGVLSLIDTLKQKRPVTETP
B5: the “V5 Sera_Nanoparticles Quantitative Value (Normalized Total Spectra)” value worked out at 1.0879 and the “V5 Sera Alone … (Normalized Total Spectra)” value was determined as 0.

B6: Fermitin family homolog 3 (protein, UniProt Q8K1B8 1-665, looked up)
Fermitin family homolog 3: MAGMKTASGDYIDSSWELRVFVGEEDPEAQSVTLRVTGESHIGGVLLKIVEEINRKQDWSDHAIWWEQKRQWLLQTHWTLDKYGILADARLFFGPQHRPVILRLPNRRVLRLRASFSKPLFQTVAAICRLLSIRHPEELSLLRAPEKKEKKKKEKEPEEEVHDLTKVVLAGGVAPTLFRGMPAHFSDSAQTEACYHMLSRPQPAPDPLLLQRLPRPSSLPDKTQLHSRWLDSSRCLMQQGIKAGDVLWLRFKYYSFFDLDPKTDPVRLTQLYEQARWDLLTEEIDCTEEEMMVFAALQYHINKLTLSGDVGELASGDLGLDDLDAALNNLEVKLKGSAPSDMLDSLTTIPELKDHLRIFRPRKLTLKGYRQYWVVFKDTTLSYYKSQDEAPGDPTQQLNLKGCEVVPDVNVSGQKFCIKLLVPSPEGMSEIYLRCQDEQQYAQWMAACRLASKGRTMADSSYASEVQAILAFLSLQRAGGSNGGSGNKPQGPEAPAEGLNPYGLVAPRFQRKFKAKQLTPRILEAHQNVAQLSLTEAQLRFIQAWQSLPDFGISYVMVRFKGSRKDEILGIANNRLIRIDLAVGDVVKTWRFSNMRQWNVNWDIRQVAIEFDEHINVAFSCVSASCRIVHEYIGGYIFLSTRERARGEELDEDLFLQLTGGHEAF
As for B6, the “V5 Sera_Nanoparticles Quantitative Value (Normalized Total Spectra)” value worked out at 1.0879 and the “V5 Sera Alone … (Normalized Total Spectra)” value is recorded as 1.8505.

B7: Ras-related protein Rap-1b (protein, UniProt Q99JI6 1-181, looked up)
Ras-related protein Rap-1b: MREYKLVVLGSGGVGKSALTVQFVQGIFVEKYDPTIEDSYRKQVEVDAQQCMLEILDTAGTEQFTAMRDLYMKNGQGFALVYSITAQSTFNDLQDLREQILRVKDTDDVPMILVGNKCDLEDERVVGKEQGQNLARQWNNCAFLESSAKSKINVNEIFYDLVRQINRKTPVPGKARKKSSC
B7: the “V5 Sera_Nanoparticles Quantitative Value (Normalized Total Spectra)” value is 1.0879 and the “V5 Sera Alone … (Normalized Total Spectra)” value turned out to be 1.8505.

B8: L-selectin (protein, UniProt P18337 39-372, looked up)
L-selectin: WTYHYSEKPMNWENARKFCKQNYTDLVAIQNKREIEYLENTLPKSPYYYWIGIRKIGKMWTWVGTNKTLTKEAENWGAGEPNNKKSKEDCVEIYIKRERDSGKWNDDACHKRKAALCYTASCQPGSCNGRGECVETINNHTCICDAGYYGPQCQYVVQCEPLEAPELGTMDCIHPLGNFSFQSKCAFNCSEGRELLGTAETQCGASGNWSSPEPICQVVQCEPLEAPELGTMDCIHPLGNFSFQSKCAFNCSEGRELLGTAETQCGASGNWSSPEPICQETNRSFSKIKEGDYNPLFIPVAVMVTAFSGLAFLIWLARRLKKGKKSQERMDDPY
As to B8, the “V5 Sera_Nanoparticles Quantitative Value (Normalized Total Spectra)” value is 1.0879 and the “V5 Sera Alone … (Normalized Total Spectra)” value was 0.

Source of the values: patent US20240122867A1, “CORONAL PROTEIN-COATED NANOPARTICLES AND USES THEREOF” (UNIVERSITY OF CENTRAL FLORIDA RESEARCH FOUNDATION, INC., priority 2021, published 2024).
